Measured values from several laboratories, pooled; numbers as filed in NIAID ChemDB.

Common to all: growth or infection tests; species: Hepatitis C virus; read-out: EC50

Rows are shuffled and stem from different studies. An empty or dashed field is not shown. ECn is the concentration giving n% inhibition of infection, replication or growth. Two numbers with a dash give a range or band.

SMILES	strain	method	cells	result
C=C[C@H]1C[C@@]1(NC(=O)[C@@H]1C[C@@H](Oc2cc(-c3ccccc3)nc3cc(OC)ccc23)CN1C(=O)[C@@H](NC(=O)OC(C)(C)C)C(C)(C)C)C(=O)NS(=O)(=O)C1(COC(C)C)CC1	1b	replicon	Huh7	<0.05 µM
COc1ccc2c(c1)c(/C=C(\C)C(=O)Nc1ccc(C(C)(C)C)cc1)cn2C(=O)c1ccccc1	2a J6/JFH-1	luciferase / reporter gene	Huh7.5	>100 µM
CCCCCOc1ccc(N(C(C)=O)c2nc(-c3cccnc3)cs2)cc1C(F)(F)F	-	-	-	<1 µM
C=C[C@H]1C[C@@]1(NC(=O)[C@@H]1C[C@@H](Oc2cc(-c3ccccc3)nc3cc(OC)ccc23)CN1C(=O)[C@@H](NC(=O)OC(C)(C)C)C(C)(C)C)C(=O)NS(=O)(=O)C1(CC#CCC)CC1	1b	replicon	Huh7	<0.05 µM
CCCC(=O)O[C@H]1[C@H](C)[C@H](n2ccc(=O)[nH]c2=O)O[C@@]1(CO)N=[N+]=[N-]	-	luciferase	Huh7	6.6 µM
O=C(O)c1ccc(F)c(CN2c3cc(F)c4ccoc4c3C(c3ccc[nH]c3=O)C2C(=O)O)c1	-	PCR	Replicon cells	0.7 µM
C/C(=C\c1cn(CCN2CCOCC2)c2ccc(C#N)cc12)C(=O)Nc1ccc(C(C)(C)C)cc1	2a J6/JFH-1	luciferase / reporter gene	Huh7.5	25 µM
C=CC1CC1(NC(=O)[C@@H]1C[C@@H](Oc2cc(-c3ccccc3)nc3cc(OC)ccc23)CN1C(=O)[C@@H](NC(=O)OC(C)(C)C)C(C)(C)C)C(=O)NS(=O)(=O)C1(C(=O)c2ccccc2)CC1	1b	replicon	Huh7	0.05–0.5 µM
CC1(C)CC(=O)C2=C(C1)Nc1c(O)cccc1N(C(=O)CC#N)[C@H]2c1ccc(OCc2ccccc2)cc1Cl	1b	luciferase / reporter gene / replicon	-	0.75 µM
CC(C)C(=O)O[C@H]1[C@H](C)[C@H](n2ccc(=O)[nH]c2=O)O[C@@]1(CO)N=[N+]=[N-]	-	luciferase	Huh7	6.5 µM
O=C(O)C1C(c2ccc[nH]c2=O)c2c(cc(F)c3ccoc23)N1Cc1cc2[nH]c(=O)[nH]c2cc1F	-	PCR	Replicon cells	0.01 µM
C/C(=C\c1cn(S(=O)(=O)Cc2ccccc2)c2ccc(C#N)cc12)C(=O)Nc1ccc(C(C)(C)C)cc1	2a J6/JFH-1	luciferase / reporter gene	Huh7.5	10.4 µM
O=C(O)C1C(c2ccc[nH]c2=O)c2c(cc(F)c3ccoc23)N1Cc1cc2c(=O)[nH]c(=O)[nH]c2cc1F	-	PCR	Replicon cells	0.006 µM
CC(C)(C)OC(=O)N1CCN([C@@H](c2ccccc2C(F)(F)F)[C@@H](c2ccccc2C(F)(F)F)n2cc(Cn3cnc(=N)c4[nH]cnc43)nn2)CC1	-	absorbance	-	0.03 µM
CCCCCCCCc1ccc(N(C(=O)OCCN(C)C)c2nc(-c3cccnc3)c(F)s2)cc1C(F)(F)F	-	-	-	<1 µM
Cn1c(=O)[nH]c(=O)c2cc(CN3c4cc(F)c5ccoc5c4C(c4ccc[nH]c4=O)C3C(=O)O)c(F)cc21	-	PCR	Replicon cells	0.3 µM
CC1(C)CC(=O)C2=C(C1)Nc1c(O)cccc1N(C(=O)c1csc(-c3ccncc3)n1)C2c1ccc(OCc2ccccc2)cc1F	1b	luciferase / reporter gene / replicon	-	2.08 µM
CCCCCCCCOc1ccc(N(C(N)=O)c2nc(-c3cccnc3)c(F)s2)cc1C(F)(F)F	-	-	-	<1 µM
CC(C)[C@H](N)CC(=O)OC[C@@]1(N=[N+]=[N-])O[C@@H](n2ccc(=O)[nH]c2=O)[C@@H](C)[C@@H]1OC(=O)C[C@@H](N)C(C)C	-	luciferase	Huh7	1.9 µM
C/C(=C\c1cn(CCN(C)C)c2ccc(C#N)cc12)C(=O)Nc1ccc(C(C)(C)C)cc1	2a J6/JFH-1	luciferase / reporter gene	Huh7.5	1.8 µM
C=CCCC(=O)N1c2cccc(O)c2NC2=C(C(=O)CC(C)(C)C2)C1c1ccc(Cl)cc1Cl	1b	luciferase / reporter gene / replicon	-	3.38 µM
CC(C)(C)c1ccc(NC(=O)/C(F)=C\c2c[nH]c3ccccc23)cc1	2a J6/JFH-1	luciferase / reporter gene	Huh7.5	4.7 µM
C=C[C@H]1C[C@@]1(NC(=O)[C@@H]1C[C@@H](Oc2cc(-c3ccccc3)nc3cc(OC)ccc23)CN1C(=O)[C@@H](NC(=O)OC(C)(C)C)C(C)(C)C)C(=O)NS(=O)(=O)C1(Cc2ccncc2)CC1	1b	replicon	Huh7	<0.05 µM
CC(C)C(=O)OC[C@@]1(N=[N+]=[N-])O[C@@H](n2ccc(=O)[nH]c2=O)[C@@H](C)[C@@H]1O	-	luciferase	Huh7	3.6 µM
C=C[C@H]1C[C@@]1(NC(=O)[C@@H]1C[C@@H](Oc2cc(-c3ccccc3)nc3cc(OC)ccc23)CN1C(=O)[C@@H](NC(=O)OC(C)(C)C)C(C)(C)C)C(=O)NS(=O)(=O)C1([Si](C)(C)C)CC1	1b	replicon	Huh7	0.5–5 µM
CC(C)COc1ccc(N(C(N)=O)c2nc(-c3ccc4c(c3)NC(=O)CO4)cs2)cc1C(F)(F)F	-	-	-	<1 µM
C=C[C@H]1C[C@@]1(NC(=O)[C@@H]1C[C@@H](Oc2cc(-c3ccccc3)nc3cc(OC)ccc23)CN1C(=O)[C@@H](NC(=O)OC(C)(C)C)C(C)(C)C)C(=O)NS(=O)(=O)C1(I)CC1	1b	replicon	Huh7	<0.05 µM
CC(=O)c1ccc(C2C3=C(CC(C)(C)CC3=O)Nc3c(O)cccc3N2C(C)=O)cc1	1b	luciferase / reporter gene / replicon	-	>100 µM
C=C[C@H]1C[C@@]1(NC(=O)[C@@H]1C[C@@H](Oc2cc(-c3ccccc3)nc3cc(OC)ccc23)CN1C(=O)[C@@H](NC(=O)OC(C)(C)C)C(C)(C)C)C(=O)NS(=O)(=O)C1(CCOCc2ccccc2)CC1	1b	replicon	Huh7	<0.05 µM
CC1(C)CC(=O)C2=C(C1)Nc1c(O)cccc1NC2c1ccccc1Cl	1b	luciferase / reporter gene / replicon	-	>100 µM
Cc1nc2cc(F)c(CN3c4cc(F)c5ccoc5c4C(c4ccc[nH]c4=O)C3C(=O)O)cc2c(=O)[nH]1	-	PCR	Replicon cells	0.02 µM
C=C[C@H]1C[C@@]1(NC(=O)[C@@H]1C[C@@H](Oc2ccnc3cc(Cl)ccc23)CN1C(=O)[C@@H](NC(=O)OC1CCCC1)C(C)(C)C)C(=O)NS(=O)(=O)C1(CCC)CC1	1b	replicon	Huh7	0.05–0.5 µM

A second listing of 3 rows from above:

SMILES	strain	method	cells	result
Cn1c(=O)[nH]c(=O)c2cc(CN3c4cc(F)c5ccoc5c4C(c4ccc[nH]c4=O)C3C(=O)O)c(F)cc21	-	PCR	Replicon cells	0.3 µM
CC(C)C(=O)OC[C@@]1(N=[N+]=[N-])O[C@@H](n2ccc(=O)[nH]c2=O)[C@@H](C)[C@@H]1O	-	luciferase	Huh7	3.6 µM
C=C[C@H]1C[C@@]1(NC(=O)[C@@H]1C[C@@H](Oc2cc(-c3ccccc3)nc3cc(OC)ccc23)CN1C(=O)[C@@H](NC(=O)OC(C)(C)C)C(C)(C)C)C(=O)NS(=O)(=O)C1(CCOCc2ccccc2)CC1	1b	replicon	Huh7	<0.05 µM